Results as given in PubChem BioAssay AID720533 (National Center for Advancing Translational Sciences (NCATS), 2013).
Several values for one entry are separate records, joined by “and”; a condition that tells them apart may be missing. Identical values can stand only once. The hits were mostly taken out for another list; the other results follow. Inconclusive results are not listed. Activity calls are given as the source filed them. Calls follow the shape of the full dose curve; tested in HEK293 cells.

Test: qHTS for Inhibitors of binding or entry into cells for Lassa Virus
Details: Lassa virus pseudotyped entry inhibition, cell-based qHTS
% is scaled to controls: 0 for no effect and ±100 for the full control effect.

In the case of `CC(Cc1ccc(O)cc1)NCC(O)c1cc(O)cc(O)c1` (stereo not given), the activity change, negative = inhibition (at 17.8 µM (top of the series)) is reported as inactive: -2.31% and the activity change, negative = inhibition (at 49.2 µM (top of the series)) is reported as inactive: -14.1%.

With `COc1ccc(C[C@H](C)NC[C@@H](O)c2ccc(O)c(NC=O)c2)cc1` the activity change, negative = inhibition (at 49.2 µM (top of the series)) was inactive: -11.9%.

For `Clc1ccc(N2CCN(Cc3c[nH]c4ncccc34)CC2)cc1`, the activity change, negative = inhibition (at 49.2 µM (top of the series)) was inactive: -12.3% and inactive: 12%.

With `COc1ccc(C[C@@H](C)NC[C@H](O)c2ccc(O)c(NC=O)c2)cc1` the activity change, negative = inhibition (at 49.2 µM (top of the series)) was inactive: -17.8%.
